Results of unrelated studies side by side (data: NIAID ChemDB).

All rows: tests in culture; species: HIV-1; read by: RT activity; measure: EC50

ECn is the concentration giving n% inhibition of infection, replication or growth.

SMILES,cells,setting,changes,strain,value
Nc1ccn([C@H]2CC[C@@H](CO)O2)c(=O)n1,MT-4,,,HXB2D,0.44 µM
Nc1nc2c(ncn2[C@H]2C=C[C@@H](CO)O2)c(=O)o1,CEM,,,IIIB,11 µg/mL
Cc1cn([C@H]2CC[C@@H](CO)O2)c(=O)[nH]c1=O,MT-4,,,IIIB,4.1 µM
Cc1ccc(C(=O)OC[C@H]2O[C@@H](n3cc(-c4ccncc4)c(N)nc3=O)C[C@@H]2OC(=O)c2ccc(C)cc2)cc1,H9,,,IIIB,<10 µg/mL
Cc1cn([C@H]2C[C@H](N=[N+]=[N-])[C@@H](CO)O2)c(=O)[nH]c1=O,PBMC,,,LAI,0.003 µM
CCCc1cc(=O)oc2c3c(c4c(c12)OC(C)(C)C=C4)O[C@@H](C)[C@H](C)[C@@H]3O,CEM + CEM-SS,,,RF,0.25 µM
CC(=O)N[C@@H](CS)C(=O)O,U1 (HIV-1 LAV PMA stimulated) + U1,,,LAV,<15000 µM
[Se],U1,,,LAV,>0.1 µg/mL
Nc1nc(=O)n([C@H]2C[C@H](OC(=O)c3ccccc3)[C@@H](COC(=O)c3ccccc3)O2)cc1-c1cccs1,H9,,,IIIB,>10 µg/mL
CC(C)Nc1cccnc1N1CCN(C(=O)c2cc3cc(NS(C)(=O)=O)ccc3[nH]2)CC1,MT-4,,,HXB2D,0.004 µM
Nc1nc2c(ncn2[C@H]2C=C[C@@H](CO)C2)c(=O)o1,CEM,,,IIIB,42 µg/mL
Nc1nc(=O)n([C@H]2CS[C@@H](CO)O2)cc1[N+](=O)[O-],PBMC,,,LAV,>100 µM
COC(=O)[C@H](C)NP(=O)(OC[C@H]1O[C@@H](N2C(=O)NC(=O)C(C)(Br)C2OC)C[C@@H]1N=[N+]=[N-])Oc1ccc(OC)cc1,PBMC,,,IIIB,0.04 µM
O=c1[nH]cnc2c1ncn2[C@H]1CC[C@@](F)(/C=C/P(=O)(O)O)C1,PBMC,,,LAI,30 µM
O=c1[nH]cnc2c1ncn2[C@H]1CC[C@@H](CO)O1,U-937/HIV-1(IIIB) + U-937,chronic infection,,IIIB,39 µg/mL
CC[C@@H](C(=O)[C@@H](C)[C@@H](O)[C@H](C)CCc1ccc(C)c(O)c1C(=O)O)[C@H]1O[C@](CC)([C@H]2CC[C@](O)(CC)[C@H](C)O2)C[C@@H]1C,U-937,,,IIIB,0.2 µg/mL
Nc1nc(=O)n([C@H]2CO[C@@H](CO)S2)cc1F,CBMC,,RT-M184V,4205(RT-M184V),15 µM
Cc1cn([C@H]2C=C[C@@H](CO)O2)c(=O)[nH]c1=O,CEM(TK-) + CEM TK-,,,,2.3 µM
COC1CCC(OC2CC(C)(C3CCC(C4OC(C)(O)C(C)CC4C)O3)OC2C2(C)CC(C)C3(OC(CC4OC(O)(C(C)C(=O)O)C(C)C(OC)C4OC)CC(OC)C3C)O2)OC1C,H9,,,IIIB,0.64 µg/mL
COC(=O)C(C)CNP(=O)(OC[C@@H]1CC[C@H](n2cc(C)c(=O)[nH]c2=O)O1)Oc1ccc([N+](=O)[O-])cc1,PBMC,,,,2 µM
Cn1cccc1-c1cn([C@@H]2C[C@H](O)[C@@H](CO)O2)c(=O)nc1N,H9,,,IIIB,>10 µg/mL
Nc1nc2c(ncn2[C@H]2CC[C@@H](CO)C2)c(=O)o1,H9,,,IIIB,175 µg/mL
O=C(CCC(=O)N1CCN(CCNC(=S)Nc2ccc(Br)cn2)CC1)NCC(=O)OCC#Cc1cn([C@H]2CC[C@@H](CO)O2)c(=O)[nH]c1=O,CEM + CEM-SS,,,LAI,>10 µM
CCc1cn([C@H]2C[C@H](N=[N+]=[N-])[C@@H](CO)O2)c(=O)[nH]c1=O,PBMC,,,LAV,<0.1 µM
Nc1nc(=O)n([C@@H]2CO[C@H](CO)S2)cc1F,CBMC,,,4170 (AZT-resistant),3 µM
S=C(NCCN1CCNCC1)Nc1ccc(Br)cn1,MT-4,,,IIIB,>100 µM
Cc1cn([C@H]2C[C@H](N=[N+]=[N-])[C@@H](CO)O2)c(=O)[nH]c1=O,MT-4,,,,0.0025 µM
Cc1cn([C@H]2C[C@H](N=[N+]=[N-])[C@@H](CO)O2)c(=O)[nH]c1=O,PBMC,,,IIIB,<0.01 µM
CN1N=C(N)c2cn([C@@H]3O[C@H](COP(=O)(O)O)[C@@H](O)[C@H]3O)c3ncnc1c23,,,,IIIB,0.03 µM
CCCc1cc(=O)oc2c3c(c4c(c12)OC(C)(C)CC4)O[C@@H](C)[C@H](C)[C@@H]3O,CEM + CEM-SS,,,RF,0.12 µM
CC[C@@H](C(=O)[C@@H](C)[C@@H](O)[C@H](C)[C@@H]1O[C@@H]([C@@H](CC)C(=O)O)CC[C@@H]1C)[C@H]1O[C@@]2(C=C[C@@H](O)[C@@]3(CC[C@@](C)([C@H]4CC[C@](O)(CC)[C@H](C)O4)O3)O2)[C@H](C)C[C@@H]1C,U-937,,,IIIB,0.09 µg/mL
COC(=O)C(C)CNP(=O)(OC[C@@H]1CC[C@H](n2cc(C)c(=O)[nH]c2=O)O1)Oc1ccc(Br)cc1,PBMC,,,,1.2 µM
Nc1nc(=O)n([C@@H]2C[C@H](O)[C@@H](CO)O2)cc1-c1ccccn1,H9,,,IIIB,>10 µg/mL
Cc1cn([C@H]2CC[C@@H](CO)O2)c(=O)[nH]c1=O,CEM(TK-) + CEM TK-,,,,91.2 µM
Nc1ncnc2c1ncn2[C@H]1CC[C@@](F)(/C=C/P(=O)(O)O)C1,PBMC,,,LAI,51 µM
Nc1ccn([C@H]2CC[C@@H](CO)O2)c(=O)n1,MT-4,,RT-D67G,HxB2D(RT-D67G),0.08 µM

Repeating the final 4 entries:

SMILES,cells,setting,changes,strain,value
Nc1nc(=O)n([C@@H]2C[C@H](O)[C@@H](CO)O2)cc1-c1ccccn1,H9,,,IIIB,>10 µg/mL
Cc1cn([C@H]2CC[C@@H](CO)O2)c(=O)[nH]c1=O,CEM(TK-) + CEM TK-,,,,91.2 µM
Nc1ncnc2c1ncn2[C@H]1CC[C@@](F)(/C=C/P(=O)(O)O)C1,PBMC,,,LAI,51 µM
Nc1ccn([C@H]2CC[C@@H](CO)O2)c(=O)n1,MT-4,,RT-D67G,HxB2D(RT-D67G),0.08 µM

Blank or dashed fields: not listed here. Lines come from different laboratories, so protocols vary.